## Share of PSTVd loop 6 variants by leaf site

PSTVd intermediate strain, loop 6: wild type UGACCGCGAG, pool pattern UNNNCGNNNG; upper and lower strand joined, each 5' to 3', the first 5 letters being the upper strand, closing pairs included.

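A pool of all variants was put on leaves of three Nicotiana benthamiana plants. Samples came from the inoculated region at 5 days, the leaf margin at 10 and upper systemic leaves at 12.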

Numbers give reads per thousand; 0 = not seen among the reads, higher = more abundant.
Each site shows the three plants.
"Pool" is the share in the plasmid pool used as inoculum, on the same scale.
The inoculated region was read from the minus strand, the other sites from the plus strand.
With 36,220-57,551 reads a sample, very low values are single reads.

sequence	pool	inoculated region	leaf margin	systemic leaves
UCUUCGGAGU	0.0261	0 / 0 / 0	0 / 0 / 0	0 / 0 / 0
UCUUCGGAUG	0.170	0.156 / 0.0539 / 0.129	0 / 0 / 0	0 / 0 / 0
UCUUCGGCAG	0.366	0.139 / 0.180 / 0.0738	0 / 0 / 0	0 / 0 / 0
UCUUCGGCCG	0.157	0.122 / 0.126 / 0.0738	0 / 0 / 0.0232	0 / 0 / 0
UCUUCGGCGG	0.275	0.0869 / 0.144 / 0.111	0.0276 / 0 / 0	0 / 0 / 0
UCUUCGGCUG	0.222	0.122 / 0.0359 / 0.0922	0 / 0.0504 / 0.0232	0 / 0 / 0
UCUUCGGGAG	0.183	0.156 / 0.0719 / 0.203	0 / 0 / 0	0.0180 / 0.141 / 0
UCUUCGGGCG	0.314	0.122 / 0.0719 / 0.0184	0 / 0 / 0	0 / 0 / 0
UCUUCGGGGG	0.144	0.0695 / 0.0719 / 0.0553	0.0276 / 0 / 0	0 / 0 / 0
UCUUCGGGUG	0.261	0.0521 / 0.0719 / 0.0922	0 / 0 / 0	0 / 0 / 0
UCUUCGGUAG	0.301	0.122 / 0.0539 / 0.0738	0 / 0 / 0	0 / 0 / 0
UCUUCGGUCG	0.288	0.174 / 0.108 / 0.0922	0 / 0 / 0	0 / 0 / 0
UCUUCGGUGG	0.418	0.174 / 0.0719 / 0.0738	0 / 0.959 / 0	0 / 0 / 0
UCUUCGGUUG	0.288	0.243 / 0.0719 / 0.148	0 / 0.0252 / 0	0 / 0 / 0
UCUUCGUAAG	0.275	0.104 / 0.0180 / 0.0922	0.0276 / 0 / 0	0 / 0 / 0
UCUUCGUACG	0.209	0.104 / 0.0719 / 0.111	0 / 0 / 0.0464	0 / 0 / 0
UCUUCGUAGG	0.170	0.104 / 0.0180 / 0.148	0 / 0 / 0	0 / 0 / 0
UCUUCGUAUG	0.379	0.0695 / 0.162 / 0.0738	0.276 / 0.0252 / 0.0464	0 / 0 / 0
UCUUCGUCAG	0.248	0.139 / 0.0539 / 0.0738	0 / 0.0757 / 0	0 / 0 / 0
UCUUCGUCCG	0.222	0.122 / 0.108 / 0.129	0 / 0 / 0.0232	0 / 0 / 0
UCUUCGUCGG	0.445	0.0869 / 0.0719 / 0.0738	0 / 0.126 / 0	0 / 0 / 0
UCUUCGUCUG	0.248	0.104 / 0.144 / 0.111	0.0276 / 0 / 0	0 / 0 / 0
UCUUCGUGAG	0.314	0.0695 / 0.108 / 0.184	0.0276 / 0 / 0.0232	0 / 0 / 0
UCUUCGUGCG	0.196	0.122 / 0.144 / 0.0369	0 / 0.0252 / 0.0232	0 / 0 / 0
UCUUCGUGGG	0.157	0.0521 / 0.0898 / 0.129	0.0276 / 0 / 0.0232	0 / 0 / 0
UCUUCGUGUG	0.275	0.104 / 0.162 / 0.0922	0.0276 / 0 / 0.0232	0 / 0 / 0
UCUUCGUUAG	0.353	0.174 / 0.180 / 0.111	0 / 0 / 0	0 / 0 / 0
UCUUCGUUCG	0.301	0.174 / 0.0719 / 0.166	0.0276 / 0 / 0	0 / 0 / 0
UCUUCGUUGG	0.340	0.122 / 0.0539 / 0.203	0 / 0.0252 / 0	0 / 0 / 0
UCUUCGUUUG	0.301	0.122 / 0.0719 / 0.0369	0.0552 / 0 / 0	0 / 0 / 0
UCUUCUCGAG	0.0131	0 / 0.0180 / 0	0 / 0.0252 / 0	0 / 0 / 0
UCUUCUGCAG	0.0131	0 / 0 / 0	0 / 0 / 0	0 / 0 / 0
UGAACCAACG	0.0131	0 / 0 / 0	0 / 0 / 0	0 / 0 / 0
UGAACCCGAG	0.0131	0.678 / 0.575 / 0.535	0.0828 / 0.0252 / 0.0696	0.0180 / 0.0404 / 0.0410
UGAACGAAAG	0.144	0.660 / 0.862 / 0.516	0.0828 / 0.0757 / 0.0928	0 / 0 / 0
UGAACGAACG	0.144	0.156 / 0.0359 / 0.203	0.0552 / 0 / 0.0696	0 / 0 / 0
UGAACGAAGG	0.0915	0.104 / 0.126 / 0.258	0.0276 / 0 / 0	0 / 0 / 0
UGAACGAAUG	0.353	0.139 / 0.180 / 0.184	0.110 / 0 / 0.0696	0 / 0 / 0
UGAACGACAG	0.288	0.817 / 0.629 / 0.756	0.0828 / 0.0757 / 0.116	0 / 0 / 0
UGAACGACCG	0.196	0.139 / 0.269 / 0.166	0 / 0 / 0	0 / 0 / 0
UGAACGACGG	0.222	0.122 / 0.144 / 0.277	0.0276 / 0 / 0.0232	0 / 0 / 0
UGAACGACGU	0.0131	0 / 0 / 0	0 / 0 / 0	0 / 0 / 0
UGAACGACUG	0.235	0.0521 / 0.216 / 0.129	0.0276 / 0 / 0.0232	0 / 0 / 0
UGAACGAGAG	0.183	0.712 / 0.898 / 1.11	0.166 / 0.328 / 0.162	0.0180 / 0.0808 / 0.144
UGAACGAGCG	0.196	0.0521 / 0.144 / 0.111	0.0276 / 0 / 0.0696	0 / 0 / 0
UGAACGAGGG	0.118	0.0869 / 0.126 / 0.129	0.0552 / 0 / 0	0 / 0 / 0
UGAACGAGUG	0.170	0.573 / 0.790 / 0.609	0.0828 / 0.0252 / 0.162	0 / 0 / 0
UGAACGAUAG	0.379	0.712 / 0.647 / 0.553	0.166 / 0.101 / 0.302	0 / 0 / 0
UGAACGAUCG	0.209	0.139 / 0.162 / 0.111	0.0276 / 0 / 0	0 / 0 / 0
UGAACGAUGG	0.288	0.104 / 0.144 / 0.111	0.0276 / 0 / 0.0232	0 / 0 / 0
UGAACGAUUG	0.366	0.191 / 0.108 / 0.184	0 / 0 / 0	0 / 0 / 0
UGAACGCAAG	0.131	0.765 / 0.808 / 0.996	0 / 0.252 / 0.0928	0.0180 / 0.121 / 0.103
UGAACGCACG	0.248	0.0695 / 0.198 / 0.240	0 / 0 / 0.0232	0 / 0 / 0
UGAACGCAGG	0.183	0.122 / 0.162 / 0.166	0.0828 / 0 / 0	0 / 0 / 0.0205

4 of these entries, quoted again:

sequence	pool	inoculated region	leaf margin	systemic leaves
UCUUCGGGUG	0.261	0.0521 / 0.0719 / 0.0922	0 / 0 / 0	0 / 0 / 0
UGAACGCACG	0.248	0.0695 / 0.198 / 0.240	0 / 0 / 0.0232	0 / 0 / 0
UGAACGACCG	0.196	0.139 / 0.269 / 0.166	0 / 0 / 0	0 / 0 / 0
UCUUCGUUAG	0.353	0.174 / 0.180 / 0.111	0 / 0 / 0	0 / 0 / 0

Wild type was 20.7 per thousand in the pool and the most common sequence in every sample (inoculated region 195, 198, 203; leaf margin 629, 591, 734; systemic leaves 942, 870, 868).
Sequences that differ at fixed positions probably stem from PCR or sequencing errors, and defective variants can be carried along by functional ones.

From the data files of Wu et al. 2024, doi:10.1371/journal.ppat.1012142.